A mixed list of measured activities; the numbers were collected in NIAID ChemDB.

Shared fields: whole-cell or culture tests; organism: HIV-1

ECn: concentration that inhibits the pathogen or its effect by n%. Blank or dashed fields: not listed here. Rows are shuffled and stem from different studies.

| SMILES | cell line | measure | method | setting | strain | mutations | result |
|---|---|---|---|---|---|---|---|
| O=c1[nH]cnc2c1ncn2[C@H]1CC[C@@H](CO)O1 | MT-4 | EC50 | p24 |  | HXB2D |  | 7 µM |
| Cc1cc(C)c(Nc2nc(NC3CCN(Cc4ccc(C(N)=O)cc4)CC3)nc3nc[nH]c23)c(C)c1 | MT-4 | EC50 | MTT |  | IIIB |  | 5.19 µM |
| CC(=O)c1ccccc1NC(=O)CSc1nnnn1-c1c(C)cc(C)cc1C | MT-4 | EC95 | p24 |  |  |  | <10 µM |
| COC(=O)[C@H](C)NP(=O)(OC[C@@H]1C=C[C@H](n2cc(C)c(=O)[nH]c2=O)O1)Oc1ccc(Br)cc1 | PBMC | EC50 | p24 |  | X267-2 NRTI resistant | RT-M41L T215Y | 0.0002 µM |
| Cc1cc(C)c(-n2nnnc2SCC(=O)Nc2cccc3cccnc23)c(C)c1 | MT-4 | EC50 | p24 |  |  |  | <10 µM |
| Cn1cc(C(=O)O)c(=O)c2cc(F)c(N3CC=C(c4ccccc4)CC3)c(C(F)(F)F)c21 | PBMC | EC50 | p24 |  | IIIB |  | 0.04 µM |
| Cc1ccnc2c1NC(=O)c1cccnc1N2C1CC1 | MT-4 | EC95 |  |  |  | RT-M41L T215Y K103N | >3 µM |
| CC(C)c1c(CO)cn(Cc2ccncc2)c1Sc1ccccc1 | C8166 | EC50 | p24 |  |  | RT-Y181C | >100 µM |
| CCN(c1nc(F)ccc1NC(C)(C)C)C1CCN(C(=O)c2cc3cc(NC(=O)N4CCN(C)CC4)ccc3[nH]2)CC1 | MT-2 | EC50 | p24 / ELISA |  | IIIB | K112M K113E V128I M200I H219P I401T R409K D437N L441P R41K | 0.0261 µM |
| Nc1ccn([C@H]2CC[C@@H](CO)O2)c(=O)n1 | CEM | EC50 | cytopathic effect / MTT |  | IIIB |  | 0.019 µM |
| Nc1ccn([C@@H]2CS[C@H](CO)O2)c(=O)n1 | PBMC | EC50 | p24 |  | 7324-1 NRTI resistant recombinant | RT-M41L D67N T69N K70R T215F K219E | 0.8 µM |
| CC(C)CN(C[C@@H](O)[C@H](Cc1ccccc1)NC(=O)O[C@H]1CCOC1)S(=O)(=O)c1ccc(N)cc1 | MT-2 | EC50 | p24 / ELISA |  | IIIB | L441P | 0.0473 µM |
| Cc1cc(C)c(Nc2nc(NC3CCN(Cc4ccccc4C)CC3)nc3nc[nH]c23)c(C)c1 | MT-4 | EC50 | MTT |  | IIIB |  | >7.81 µM |
| CC(C)(C)NC(=O)[C@@H]1CSCN1C(=O)[C@@H](O)[C@H](Cc1ccccc1)NC(=O)[C@H](CC(N)=O)NC(=O)COc1cccc2ccccc12 | PBMC | EC50 | p24 |  | Clinical isolates |  | 0.14 µM |
| CC(C)[C@H](NC(=O)OCc1ccccc1)C(=O)N[C@@H](Cc1ccccc1)[C@@H](O)[C@@H](NCc1ccc(Cl)cc1)C(=O)N[C@H](C(=O)NCc1nc2ccccc2[nH]1)C(C)C | MT-4 | EC50 | MTT / p24 |  | IIIB |  | 0.035 µM |
| O=c1[nH]cnc2c1ncn2[C@H]1CC[C@@H](CO)O1 | MT-2 | EC50 | p24 |  | NL4-3 WT |  | 0.297 µM |
| CCOC(=O)[C@H](C)N[P@](=O)(CO[C@@H]1C=C(F)[C@H](n2cnc3c(N)ncnc32)O1)Oc1ccccc1 | PBMCs | EC50 | p24 / ELISA / antigen | 4 d | B940374 (subtype B) |  | 0.03 µM |
| COC(=O)c1ccc(CN2CCC(Nc3nc(Nc4c(C)cc(C)cc4C)c4[nH]cnc4n3)CC2)cc1 | MT-4 | EC50 | MTT |  | IIIB |  | 4.83 µM |
| Cc1cc(C)c(-n2nnnc2SCC(=O)Nc2ccc(F)cc2C)c(C)c1 | MT-4 | EC50 | p24 |  |  |  | <10 µM |
| CC(C)[C@H](NC(=O)N(C)Cc1ccccn1)C(=O)N[C@@H](Cc1ccccc1)[C@H](O)[C@@H](O)[C@H](Cc1ccccc1)NC(=O)[C@@H](NC(=O)N(C)Cc1ccccn1)C(C)C | ATH8 | EC90 | cytopathic effect / trypan blue |  | IIIB |  | 0.9 µM |
| COc1ccc(CN[C@@H](C(=O)N[C@H](C(=O)NCc2nc3ccccc3[nH]2)C(C)C)[C@H](O)[C@H](Cc2ccccc2)NC(=O)[C@@H](NC(=O)CCc2ccc(O)cc2)C(C)(C)C)cc1 | MT-4 | EC50 | p24 |  | RF |  | 0.14 µM |
| CC(C)c1c(COC(N)=O)cn(Cc2ccncc2)c1Sc1ccccc1 | MT-4 | EC50 | cytopathic effect / MTT |  | IIIB |  | 0.7 µM |
| S=C(NCCc1cccs1)Nc1ccc(Br)cn1 | HT4 + HeLa | EC50 | plaque count |  | G890-1 Clinical isolate NRTI-resistant | RT-K20R M41L D67N T69N K70R L210W T215Y | 0.01 µM |
| Cc1ccnc2c1NC(=O)c1cccnc1N2C1CC1 | HT4 + HT4 LacZ-1 | EC50 | plaque count |  | HXB2(184) (RT-M184V) | RT-M184V | 0.1 µM |
| Cc1cc(=O)c2ccc(N=C=S)cc2o1 | CEM-GFP | EC50 | p24 / ELISA |  | NL4-3 |  | 0.1775 µM |
| CC(C)=CCN1Cc2cc(Cl)cc3[nH]c(=S)n(c23)C[C@@H]1C | MT-4 | EC50 | cytopathic effect / MTT |  | IIIB |  | 0.0015 µM |
| COc1ccc(CN[C@@H](C(=O)N[C@H](C(=O)NCc2nc3ccccc3[nH]2)C(C)C)[C@H](O)[C@H](Cc2ccccc2)NC(=O)[C@@H](NC(=O)OCc2ccccc2)C(C)(C)C)cc1 | Primary T4 lymphocytes + T4 | EC50 | p24 | clinical isolate | K31 |  | 0.0081 µM |
| CSC[C@H](NC(=O)COc1cccc2cnccc12)C(=O)N[C@@H](Cc1ccccc1)[C@H](O)C(=O)N1CSC(C)(C)[C@H]1C(=O)NC(C)(C)C | ATH8 | EC50 | cytopathic effect |  | RF |  | 0.02 µM |
| Cc1cn([C@H]2C[C@H](N=[N+]=[N-])[C@@H](CO)O2)c(=O)[nH]c1=O | MOLT-4 | EC50 | cytopathic effect / MTT |  | IIIB |  | 0.006 µM |
| Cc1ccnc2c1NC(=O)c1cccnc1N2C1CC1 | CEM + CEM-SS | EC50 | cytopathic effect / XTT |  | 4XAZT/Y181C (RT D67N K70R Y181C T215Y K219Q) | RT-D67N K70R Y181C T215Y K219Q | 0.8 µM |
| Nc1nc(NC2CC2)c2ncn([C@H]3C=C[C@@H](CO)C3)c2n1 | MT-2 | EC50 | ATP |  | IIIB |  | 0.32 µM |
| COc1ccc(CN[C@@H](C(=O)N[C@H](C(=O)NCc2nc3ccccc3[nH]2)C(C)C)[C@H](O)[C@H](Cc2ccccc2)NC(=O)[C@@H](NC(=O)[C@@](C)(O)c2ccccc2)C(C)(C)C)cc1 | MT-4 | EC50 | p24 |  | RF |  | 0.059 µM |
| Nc1ccn([C@H]2CC[C@@H](CO)O2)c(=O)n1 | MT-2 | EC50 | p24 |  | RT Δ.67 T69G K103N | 1 (Δ.67+T69G+K103N) | 0.097 µM |
| Nc1ccn([C@H]2CC[C@@H](CO)O2)c(=O)n1 | JM | EC50 | syncytia |  | GB8 |  | 0.007 µM |
| CC(C)c1c(CO)cn(Cc2ccncc2)c1S(=O)(=O)c1ccccc1 | MT-4 | EC50 | cytopathic effect / MTT |  | IIIB |  | 2.6 µM |
| C[C@H](NC(=O)[C@H](CCCN=C(N)N)NC(=O)c1ccc(CNCc2ccccn2)cc1)c1cccc2ccccc12 | PBMC | EC50 | p24 |  | YU-2 R5 clinical isolate |  | >2 µM |
| Nc1ncnc2c1ncn2[C@@H]1O[C@H](OCP(=O)(O)O)C=C1F | PBMCs | EC50 | p24 / ELISA / antigen | 4 d | B940374 (subtype B) |  | 17.6 µM |
| Cc1ccc(S(=O)(=O)N(CC(C)C)C[C@@H](O)[C@H](Cc2ccccc2)NC(=O)O[C@H]2CO[C@H]3OCC[C@H]32)cc1 | MT-2 | EC50 | p24 / ELISA |  | IIIB | K112M K113E V128I | 0.008 µM |
| Cc1cc(C)c(-n2nnnc2SCC(=O)Nc2ccc(S(N)(=O)=O)cc2)c(C)c1 | MT-4 | EC95 | p24 |  |  |  | <10 µM |
| CC(C)c1c(COC(N)=O)cn(Cc2ccncc2)c1Sc1cc(Cl)cc(Cl)c1 | MT-4 | EC50 | cytopathic effect / MTT |  | IIIB |  | 0.3 µM |
| CC(Sc1nnnn1-c1cccc2ccccc12)C(=O)Nc1ccccc1[N+](=O)[O-] | MT-4 | EC50 | p24 |  |  |  | <10 µM |
| Nc1ccn([C@H]2CC[C@@H](CO)O2)c(=O)n1 | MT-4 | EC50 |  | clinical isolate | Clinical isolate | ddI-resistant | 0.45 µM |
| Cc1cc(C)c(-n2nnnc2SCC(=O)Nc2cccc3ncccc23)c(C)c1 | MT-4 | EC50 | p24 |  |  |  | <10 µM |
| Nc1nc(=O)n([C@@H]2CS[C@H](CO)O2)cc1F | HT4 + HT4 LacZ-1 | EC50 | plaque count |  | HXB2 | RT-M184V | >500 µM |
| Cc1cn([C@H]2C[C@H](N=[N+]=[N-])[C@@H](CO)O2)c(=O)[nH]c1=O | MT-4 | EC50 | RT activity |  | HXB2-D184 (RT-M184V) | RT-M184V | 0.018 µM |
| Cc1cn([C@H]2C[C@H](N=[N+]=[N-])[C@@H](CO)O2)c(=O)[nH]c1=O | HT4LACZ-1 + HT4 LacZ-1 | EC50 | plaque count |  | Q184V+333E (RT M41L/D67N/K70R/T215Y/Q184V/G333E) | RT-M41L D67N K70R T215Y Q184V G333E | 1.73 µM |
| Cc1cc(C)c(-n2nnnc2SCC(=O)Nc2ccccc2OC(F)F)c(C)c1 | MT-4 | EC95 | p24 |  |  |  | <10 µM |
| Cc1cn([C@H]2C[C@H](N=[N+]=[N-])[C@@H](CO)O2)c(=O)[nH]c1=O | CEM + CEM-SS | EC50 | cytopathic effect / XTT |  | 4XAZT/L100I (RT D67N K70R L100I T215Y K219Q) | RT-D67N K70R L100I T215Y K219Q | 0.1 µM |
| Cc1cn([C@H]2C[C@H](N=[N+]=[N-])[C@@H](CO)O2)c(=O)[nH]c1=O | MT-4 | EC50 | ELISA |  |  |  | 0.001 µM |
| Cc1cccc(C)c1-n1nnnc1SCC(=O)Nc1ccccc1[N+](=O)[O-] | MT-4 | EC50 | p24 |  |  |  | <10 µM |
| Nc1ncnc2c1ncn2[C@@H]1C=C[C@H](OCP(=O)(O)O)O1 | MT-2 | EC50 | ATP |  | IIIB |  | 5.9 µM |
| Cc1cc(C)c(Nc2nc(NC3CCN(Cc4cccc(F)c4)CC3)nc3nc[nH]c23)c(C)c1 | MT-4 | EC50 | MTT |  | IIIB |  | >30.68 µM |

3 of the rows above, restated:

SMILES | cell line | measure | method | setting | strain | mutations | result
Cc1cc(C)c(-n2nnnc2SCC(=O)Nc2ccc(S(N)(=O)=O)cc2)c(C)c1 | MT-4 | EC95 | p24 |  |  |  | <10 µM
Cc1ccnc2c1NC(=O)c1cccnc1N2C1CC1 | MT-4 | EC95 |  |  |  | RT-M41L T215Y K103N | >3 µM
Cc1cccc(C)c1-n1nnnc1SCC(=O)Nc1ccccc1[N+](=O)[O-] | MT-4 | EC50 | p24 |  |  |  | <10 µM